Share of PSTVd loop 15 variants by leaf site

The measurements come from Wu et al. 2024 (doi:10.1371/journal.ppat.1012142).

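A pool of all variants was put on leaves of three Nicotiana benthamiana plants. Samples came from the inoculated region at 5 days, the leaf margin at 10 and upper systemic leaves at 12.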

Region: loop 15 of PSTVd (intermediate strain), upper and lower strand joined, each 5' to 3', the first 7 letters being the upper strand, closing pairs included. Wild type: GGAAACCGCUACUAC. Varied positions (N): GGAAACCGNNNNNNC.

Numbers give reads per thousand; 0 = not seen among the reads, higher = more abundant. Each site shows the three plants. "Pool" is the share in the plasmid pool used as inoculum, on the same scale. The inoculated region was read from the minus strand, the other sites from the plus strand. The authors trace changes outside the varied positions to PCR and sequencing errors or to mutation in the plant; presence does not show that a variant is infectious alone. Wild type was 33.9 per thousand in the pool and the most common sequence in every sample (inoculated region 202, 200, 159; leaf margin 724, 746, 710; systemic leaves 856, 883, 880). With 43,870-66,106 reads a sample, very low values are single reads.

| # | sequence | pool | inoculated region | leaf margin | systemic leaves |
|---|---|---|---|---|---|
| 1 | GGAAACCGAACUGAC | 0.208 | 0.213 / 0.145 / 0.209 | 0.0162 / 0 / 0 | 0.0161 / 0 / 0 |
| 2 | GGAAACCGACGAGAC | 0.240 | 0.115 / 0.0964 / 0.0571 | 0 / 0.0223 / 0.0801 | 0 / 0 / 0 |
| 3 | GGAAACCGAGAGAGC | 0.240 | 0.115 / 0.0964 / 0.114 | 0.0323 / 0.0223 / 0.0200 | 0 / 0 / 0 |
| 4 | GGAAACCGAGCAUAC | 0.224 | 0.180 / 0.209 / 0.400 | 0.162 / 0.178 / 0.100 | 0.0322 / 0 / 0 |
| 5 | GGAAACCGAGUAGAC | 0.208 | 0.0491 / 0.0803 / 0.152 | 0 / 0 / 0 | 0 / 0 / 0 |
| 6 | GGAAACCGAUUUGAC | 0.176 | 0.131 / 0.0161 / 0.0762 | 0.0162 / 0 / 0.0200 | 0 / 0 / 0 |
| 7 | GGAAACCGCCCACCC | 0.288 | 0.131 / 0.0482 / 0.133 | 0.0162 / 0 / 0.0200 | 0 / 0 / 0 |
| 8 | GGAAACCGCCGCCCC | 0.352 | 0.131 / 0.177 / 0.133 | 0.0162 / 0 / 0 | 0 / 0 / 0 |
| 9 | GGAAACCGCCUCCUC | 0.240 | 0.0983 / 0.0482 / 0.0762 | 0 / 0 / 0 | 0 / 0 / 0 |
| 10 | GGAAACCGCCUGCCC | 0.288 | 0.0328 / 0.0803 / 0.0762 | 0 / 0 / 0 | 0.0161 / 0 / 0 |
| 11 | GGAAACCGCCUGCGC | 0.192 | 0.0655 / 0.161 / 0.114 | 0.0162 / 0 / 0 | 0 / 0 / 0 |
| 12 | GGAAACCGCGAUGAC | 0.176 | 0.0983 / 0.0643 / 0.0952 | 0 / 0.0223 / 0.0200 | 0 / 0 / 0 |
| 13 | GGAAACCGCGGCGCC | 0.192 | 0.262 / 0.241 / 0.286 | 0 / 0 / 0 | 0 / 0 / 0 |
| 14 | GGAAACCGCGUAGAC | 0.240 | 0.0983 / 0.0643 / 0.0952 | 0 / 0 / 0 | 0 / 0 / 0 |
| 15 | GGAAACCGCGUCUCC | 0.416 | 0.147 / 0.0964 / 0.0762 | 0.0162 / 0.0223 / 0.0401 | 0 / 0 / 0 |
| 16 | GGAAACCGGAAUACC | 0.272 | 0.147 / 0.0321 / 0.152 | 0 / 0.0223 / 0 | 0 / 0 / 0 |
| 17 | GGAAACCGGACGUGC | 0.144 | 0.262 / 0.273 / 0.133 | 0 / 0 / 0.0200 | 0 / 0 / 0 |
| 18 | GGAAACCGGCAAAGC | 0.192 | 0.0328 / 0.145 / 0.133 | 0.0162 / 0 / 0.0401 | 0 / 0 / 0 |
| 19 | GGAAACCGGCGGGCC | 0.320 | 0.0328 / 0.0803 / 0.0762 | 0.0162 / 0.0223 / 0.0200 | 0 / 0 / 0 |
| 20 | GGAAACCGGCUAACC | 0.224 | 0.115 / 0.0964 / 0.133 | 0 / 0 / 0 | 0 / 0 / 0.0228 |
| 21 | GGAAACCGGGCCCUC | 0.208 | 0.0983 / 0.0803 / 0.0952 | 0 / 0.0223 / 0.0200 | 0 / 0 / 0 |
| 22 | GGAAACCGGGUAGGC | 0.336 | 0.0655 / 0.129 / 0.114 | 0 / 0 / 0.0200 | 0 / 0 / 0 |
| 23 | GGAAACCGGGUGCUC | 0.224 | 0.0655 / 0.193 / 0.0571 | 0 / 0 / 0 | 0 / 0 / 0 |
| 24 | GGAAACCGGGUUGUC | 0.208 | 0.0655 / 0.0643 / 0.209 | 0 / 0.0223 / 0.0401 | 0 / 0 / 0 |
| 25 | GGAAACCGGUACGGC | 0.336 | 0.115 / 0.0321 / 0.114 | 0 / 0 / 0.0200 | 0 / 0 / 0 |
| 26 | GGAAACCGGUGCUUC | 0.160 | 0.0819 / 0.0803 / 0.0571 | 0.0162 / 0 / 0 | 0 / 0 / 0 |
| 27 | GGAAACCGGUGGGGC | 0.192 | 0.0819 / 0.129 / 0.0952 | 0 / 0 / 0.0601 | 0 / 0 / 0 |
| 28 | GGAAACCGGUUUGGC | 0.240 | 0.0819 / 0.0964 / 0.0571 | 0.0162 / 0 / 0.0200 | 0 / 0 / 0 |
| 29 | GGAAACCGUAGUAGC | 0.176 | 0.147 / 0.129 / 0.0381 | 0 / 0 / 0.0401 | 0 / 0 / 0 |
| 30 | GGAAACCGUAGUCAC | 0.224 | 0.229 / 0.209 / 0.343 | 0.113 / 0.111 / 0.160 | 0.0322 / 0 / 0 |
| 31 | GGAAACCGUAUGAAC | 0.240 | 0.147 / 0.257 / 0.0571 | 0 / 0 / 0 | 0 / 0.0151 / 0 |
| 32 | GGAAACCGUAUUCGC | 0.256 | 0.213 / 0.209 / 0.190 | 0 / 0.0223 / 0.0401 | 0 / 0 / 0 |
| 33 | GGAAACCGUCCAGCC | 0.288 | 0.164 / 0.0482 / 0.0952 | 0 / 0.0223 / 0 | 0 / 0 / 0 |
| 34 | GGAAACCGUCCGGCC | 0.192 | 0.0491 / 0.0482 / 0.152 | 0 / 0 / 0 | 0 / 0 / 0 |
| 35 | GGAAACCGUCUCUUC | 0.256 | 0.0983 / 0.112 / 0.0381 | 0 / 0.0223 / 0 | 0 / 0.0151 / 0 |
| 36 | GGAAACCGUGGGCGC | 0.160 | 0.0655 / 0.0964 / 0.0762 | 0.0162 / 0.0223 / 0 | 0 / 0 / 0 |
| 37 | GGAAACCGUGUCCUC | 0.176 | 0.0491 / 0.0482 / 0.0762 | 0 / 0 / 0 | 0 / 0 / 0 |
| 38 | GGAAACCGUGUGUUC | 0.208 | 0.246 / 0.193 / 0.362 | 0.0970 / 0.0668 / 0.120 | 0.0805 / 0.0605 / 0.0684 |

5 of these entries, quoted again:

sequence,pool,inoculated region,leaf margin,systemic leaves
GGAAACCGUCUCUUC,0.256,0.0983 / 0.112 / 0.0381,0 / 0.0223 / 0,0 / 0.0151 / 0
GGAAACCGCGGCGCC,0.192,0.262 / 0.241 / 0.286,0 / 0 / 0,0 / 0 / 0
GGAAACCGGUACGGC,0.336,0.115 / 0.0321 / 0.114,0 / 0 / 0.0200,0 / 0 / 0
GGAAACCGGUGGGGC,0.192,0.0819 / 0.129 / 0.0952,0 / 0 / 0.0601,0 / 0 / 0
GGAAACCGAGUAGAC,0.208,0.0491 / 0.0803 / 0.152,0 / 0 / 0,0 / 0 / 0